Results as given in publication PMC11883728.

Biological target: transmembrane protease, serine 2 (TMPRSS2) (UniProt O15393)

SARS-CoV-2 spike protein on reporter virus particles (RVPs) (from UniProt P0DTC2) (natural protein)
ΔT2 of LIONs-TMPRSS2 with RVPs at pH 5.0: 190 ms
